Measured values from several laboratories, pooled; numbers as filed in NIAID ChemDB.

All rows: growth or infection tests; organism: Human cytomegalovirus; cell line: HFF; endpoint: EC50

ECn: concentration that inhibits the pathogen or its effect by n%. Neighbouring rows are from separate reports. Blank or dashed fields: not listed here.

COC(=O)[C@H](C)NP(=O)(OCC1C/C1=C/n1cnc2c(N)ncnc21)Oc1ccccc1 ; strain: TOWNE ; read by: plaque count ; value: 0.14 µM
N#Cc1cn([C@@H]2O[C@H](CO)[C@@H](O)[C@@H]2O)c2ncnc(N)c12 ; strain: TOWNE ; value: 4.1 µM
NC(=S)c1c(N)n(COC(CO)CO)c2ncnc(N)c12 ; read by: plaque count ; value: >100 µM
Nc1ncnc2c1c(Br)cn2[C@H]1CC[C@@H](CO)O1 ; read by: plaque count ; value: 6.2 µM
N=c1ccc(=Nc2ccc(N)c3c(O)c4ccccc4c(O)c23)c2c(=O)c3ccccc3c(=O)c1=2 ; strain: AD169 ; read by: cytopathic effect ; value: 30 µM
COC(=O)C(C)NP(=O)(OC[C@@H]1C/C1=C/n1cnc2c(N)nc(N)nc21)Oc1ccccc1 ; strain: AD169 ; read by: plaque count ; value: >42 µM
CC1=CC(S(=O)(=O)O)=C(Nc2cccc3c2C(=O)c2cccc(Nc4ccc(C)cc4S(=O)(=O)O)c2C3=O)CC1 ; strain: EC ; read by: plaque count ; value: 50 µM
NC(=O)c1cn([C@@H]2O[C@H](CO)[C@@H](O)[C@@H]2O)c2ncnc(N)c12 ; strain: TOWNE ; read by: plaque count ; value: 0.8 µM
CC(=O)OC[C@@]1(O)CCC23C[C@H]1C[C@@H]2CC[C@@H]1[C@]3(C)CCC(=O)[C@@]1(C)COS(=O)(=O)c1ccc(C)cc1 ; read by: plaque count ; value: >500 µM
NC(=O)c1c(Br)n([C@@H]2O[C@H](CO)[C@@H](O)[C@H]2O)c2ncnc(N)c12 ; read by: plaque count ; value: 3 µM
C[C@]12CCC3OC[C@@]3(C)[C@@H]1CC[C@H]1C[C@@H]3CC12CCC3=O ; read by: plaque count ; value: >500 µM
Nc1ncnc2c1ncn2[C@H]1C[C@]12C[C@@H]2CO ; strain: TOWNE ; read by: plaque count ; value: 28 µM
NC(=O)c1cn([C@H]2C=C[C@@H](CO)O2)c2ncnc(N)c12 ; read by: plaque count ; value: >100 µM
Nc1nc(Cl)nc2c1ncn2/C=C1\CC1CO ; strain: TOWNE ; read by: plaque count ; value: >100 µM
C[C@@]1(CO)[C@H](O)CC[C@@]2(C)[C@H]1CC[C@H]1C[C@@H]3C[C@@]12CC[C@@]3(C)O ; read by: plaque count ; value: >500 µM
NC(=O)c1cn([C@H]2C[C@H](O)[C@@H](CO)O2)c2ncnc(N)c12 ; strain: TOWNE ; value: 0.9 µM
NC(=O)c1cn([C@@H]2O[C@H](CO)C[C@H]2O)c2ncnc(N)c12 ; read by: plaque count ; value: 32 µM
Nc1[nH]c(=O)nc2c1ncn2/C=C1/C[C@H]1CO ; strain: TOWNE ; read by: plaque count ; value: >100 µM
CC(=O)Nc1ccc(Nc2cc(S(=O)(=O)O)c(N)c3c2C(=O)c2ccccc2C3=O)cc1 ; strain: AD169 ; read by: cytopathic effect ; value: 10 µM
O=C(NCCc1c[nH]c2ccccc12)C1=Cc2ccncc2CC1 ; strain: TOWNE ; read by: plaque count ; value: 0.41 µM
Nc1nncc2c1c(Br)cn2[C@@H]1O[C@H](CO)[C@@H](O)[C@H]1O ; strain: TOWNE ; read by: virus yield ; value: <2.2 µM
N#Cc1cn(COC(CO)CO)c2ncnc(N)c12 ; read by: plaque count ; value: >320 µM
Nc1nc(NC2CC2)c2ncn(C=C3CC3CO)c2n1 ; strain: TOWNE ; read by: virus yield ; value: 0.4 µM
Nc1nc2c(ncn2COC(CO)CO)c(=O)[nH]1 ; strain: AD169 ; read by: plaque count ; value: 0.78 µM
COc1nc(N)nc2c1ncn2C=C1CC1CO ; strain: AD169 ; read by: plaque count ; value: 5.3 µM
Nc1nc(Cl)c2ncn(/C=C3/C[C@@H]3CO)c2n1 ; strain: AD169 ; read by: plaque count ; value: 2.9 µM
Nc1ncnc2c1c(I)cn2COC(CO)CO ; read by: plaque count ; value: 3.5 µM
C[C@@]1(CO)[C@H](O)CC[C@@]2(C)[C@H]1CC[C@H]1C[C@@H]3CC12CC1O[C@]13C ; read by: plaque count ; value: >500 µM
Nc1ncnc2c1ccn2[C@H]1CC[C@@H](CO)O1 ; read by: plaque count ; value: >100 µM
Nc1c(S(=O)(=O)O)cc(Nc2ccc(S(=O)(=O)O)c(Nc3nc(Cl)nc(Cl)n3)c2)c2c1C(=O)c1ccccc1C2=O ; strain: AD169 ; read by: cytopathic effect ; value: 30 µM
N#Cc1cn(COCCO)c2ncnc(N)c12 ; read by: plaque count ; value: >100 µM
NC(=O)c1c(Br)n(COC(CO)CO)c2ncnc(N)c12 ; read by: plaque count ; value: >100 µM
NC(=O)c1cn([C@@H]2O[C@H](CO)[C@H](O)[C@H]2O)c2ncnc(N)c12 ; read by: plaque count ; value: 29 µM
N#Cc1c(N)n(COC(CO)CO)c2ncnc(N)c12 ; read by: plaque count ; value: >100 µM
CC1(C)OC[C@]2(C)[C@@H](CC[C@@]3(C)[C@H]2CC[C@H]2C[C@@H]4[C@H](O)C23CCC42OC(C)(C)O2)O1 ; read by: plaque count ; value: >500 µM
Nc1nc(N)c2ncn(/C=C3/C[C@H]3CO)c2n1 ; strain: AD169 ; read by: plaque count ; value: >431 µM
NC(=O)c1c(N)n(COC(CO)CO)c2ncnc(N)c12 ; read by: plaque count ; value: >100 µM

Repeating the final 3 entries:

| compound | strain | read by | value |
|---|---|---|---|
| CC1(C)OC[C@]2(C)[C@@H](CC[C@@]3(C)[C@H]2CC[C@H]2C[C@@H]4[C@H](O)C23CCC42OC(C)(C)O2)O1 | - | plaque count | >500 µM |
| Nc1nc(N)c2ncn(/C=C3/C[C@H]3CO)c2n1 | AD169 | plaque count | >431 µM |
| NC(=O)c1c(N)n(COC(CO)CO)c2ncnc(N)c12 | - | plaque count | >100 µM |